Anti-infective test results gathered from many reports (values: NIAID ChemDB through PubChem).

Shared fields: toxicity to cultured cells; cells: MT-4; endpoint: CC50

Lines come from different laboratories, so protocols vary.

CC(=O)Nc1ccn([C@H]2C[C@H](CO)[C@@H](CO)O2)c(=O)n1 ; value: >300 µM
COc1ccc(CSc2nc(C(=O)c3ccc(Cl)cc3)c(C)c(=O)[nH]2)cc1 ; read by: MTT ; value: 152 µM
COC(=O)N[C@H](C(=O)NN(CCC[C@@]1(Cc2ccccc2)C(=O)N(C2c3ccccc3C[C@H]2O)C[C@H]1O)Cc1ccc(-c2cccnc2)cc1)C(C)(C)C ; read by: XTT ; value: 31 µM
COc1cc2c(c(OC)c1OC)-c1c(cc3c(c1OC)OCO3)[C@H](OC(=O)c1ccccc1)[C@@](C)(O)[C@@H](C)C2 ; read by: MTT ; value: 79.43 µg/mL
O=c1nc(N=CN2CCCC2)ccn1[C@H]1C[C@H](CO)[C@@H](CO)O1 ; value: >300 µM
CCCc1c(Cc2cc(C)cc(C)c2)n(COC/C(C)=C/c2ccccc2)c(=O)[nH]c1=O ; read by: MTT ; value: 28 µM
COC(=O)N[C@H](C(=O)NN(CC[C@]1(Cc2ccccc2)C(=O)N(C2c3ccccc3C[C@H]2O)C[C@H]1O)Cc1ccc(Br)cc1)C(C)(C)C ; read by: XTT ; value: 31 µM
CCc1c(Cc2cc(C)cc(C)c2)n(COC/C(C)=C/c2ccccc2)c(=O)[nH]c1=O ; read by: MTT ; value: 30 µM
COc1ccc(CSc2nc(C(=O)c3ccc(F)cc3)c(C)c(=O)[nH]2)cc1 ; read by: MTT ; value: 225 µM
CC[C@H](C)[C@H](NC(=O)C[C@H](O)[C@H](CC(C)C)NC(=O)[C@H](C)NC(=O)[C@H](CCC(=O)O)NC(C)=O)C(N)=O ; value: 1200 µM
CCCc1c(Cc2cc(C)cc(C)c2)n(COC2C=CCCC2)c(=O)[nH]c1=O ; read by: MTT ; value: 28 µM
COc1cc2nc(S(=O)CC(=O)Nc3ccc(C(F)(F)F)cc3)nc(Nc3c(C)cc(/C=C/C#N)cc3C)c2cc1OC ; read by: MTT ; value: 52.2 µM
CSc1ccccc1CNC(=O)c1nc2n(c(=O)c1O)CN(C)C2(C)C ; read by: microscopy ; value: >1 µM
COC(=O)N[C@H](C(=O)NN(CC[C@]1(Cc2ccccc2)C(=O)N(C2c3ccccc3C[C@H]2O)C[C@@H]1O)Cc1ccc(Br)cc1)C(C)(C)C ; read by: XTT ; value: 31 µM
CN1CCn2c(nc(C(=O)NCc3cccc(Cl)c3)c(O)c2=O)C(N(C)C(=O)C(=O)N(C)C)C1 ; read by: microscopy ; value: >1 µM
COC(=O)N[C@H](C(=O)NN(CCc1ccccc1)CC[C@@](O)(Cc1ccccc1)C(=O)N[C@H]1c2ccccc2C[C@H]1O)C(C)(C)C ; read by: XTT ; value: >10 µM
CCc1c(Cc2cc(C)cc(C)c2)n(COCC2CC=CCC2)c(=O)[nH]c1=O ; read by: MTT ; value: 24 µM
O=C1N(Cc2ccc(Cl)cc2Cl)c2cccn2S(=O)(=O)N1Cc1cccc(F)c1 ; read by: MTT ; value: 249 µM
COc1cc2nc(S(=O)CC(=O)Nc3ccc([N+](=O)[O-])cc3)nc(Nc3c(Cl)cc(/C=C/C#N)cc3Cl)c2cc1OC ; read by: MTT ; value: >92.8 µM
O=C1N(Cc2ccc(Cl)cc2Cl)c2cccn2S(=O)(=O)N1Cc1ccccc1 ; read by: MTT ; value: 273 µM
CC(=O)N[C@@H](CCC(N)=O)C(=O)N[C@@H](C)C(=O)N[C@@H](CC(C)C)[C@@H](O)CC(=O)N[C@H](C(N)=O)C(C)C ; value: 850 µM
Cc1nc2sc3c(c2c(Sc2ccccc2)c1C(OC(C)(C)C)C(=O)O)CCCC3 ; read by: MTT ; value: 105 µM
COc1ccc(CSc2nc(C(=O)c3cccc(F)c3)c(C)c(=O)[nH]2)cc1 ; read by: MTT ; value: >325 µM
COc1cc2nc(S(=O)CC(=O)Nc3cccc(Cl)c3)nc(Nc3c(Cl)cc(/C=C/C#N)cc3Cl)c2cc1OC ; read by: MTT ; value: 68.9 µM
COC(=O)N[C@H](C(=O)NN(CC[C@@]1(Cc2ccccc2)C(=O)N(C2c3ccccc3C[C@H]2O)C[C@@H]1O)Cc1ccc(-c2ccccn2)cc1)C(C)(C)C ; read by: XTT ; value: 31 µM
CCCc1c(Cc2ccccc2)n(COC/C(C)=C/c2ccccc2)c(=O)[nH]c1=O ; read by: MTT ; value: 30 µM
CC1c2nc(C(=O)NCc3ccc(F)cc3)c(O)c(=O)n2CCN1Cc1cocn1 ; read by: microscopy ; value: >1 µM
COc1cc2nc(S(=O)CC(=O)Nc3ccc(C)cc3)nc(Nc3c(Cl)cc(/C=C/C#N)cc3Cl)c2cc1OC ; read by: MTT ; value: 32.2 µM
Cc1cn(CCCCO[C@H]2C=C[C@@H](CO)O2)c(=O)[nH]c1=O ; read by: MTT ; value: 33 µg/mL
CC(C)N(C=Nc1ccn([C@H]2C[C@H](CO)[C@@H](CO)O2)c(=O)n1)C(C)C ; value: >300 µM
CN(C)C(=O)C(=O)N(C)C1COCCn2c1nc(C(=O)NCc1ccc(F)cc1)c(O)c2=O ; read by: microscopy ; value: >1 µM
O=C1N(Cc2ccc(F)cc2)c2cccn2S(=O)(=O)N1Cc1ccccc1 ; read by: MTT ; value: 190 µM
CN(C)C(=O)C(=O)N1CCn2c(nc(C(=O)NCc3ccc(F)cc3)c(O)c2=O)C1 ; read by: microscopy ; value: >1 µM
COC(=O)N[C@H](C(=O)NN(CC[C@@]1(Cc2ccccc2)C(=O)N(C2c3ccccc3C[C@H]2O)C[C@@H]1O)Cc1ccc(-c2cccnc2)cc1)C(C)(C)C ; read by: XTT ; value: 31 µM
CC(C)[C@H](NC(=O)OC[C@H]1C[C@H](n2ccc(N=CN(C)C)nc2=O)O[C@@H]1COC(=O)N[C@H](C(=O)NC(=O)OC(C)(C)C)C(C)C)C(=O)NC(=O)OC(C)(C)C ; value: >300 µM
COc1cc2nc(S(=O)CC(=O)Nc3ccc(C(F)(F)F)cc3)nc(Nc3c(Cl)cc(/C=C/C#N)cc3Cl)c2cc1OC ; read by: MTT ; value: 22 µM
CCCc1c(Cc2ccccc2)n(COCC2CC=CCC2)c(=O)[nH]c1=O ; read by: MTT ; value: 34 µM
O=C1N(Cc2cccc(Cl)c2)c2cccn2S(=O)(=O)N1Cc1ccccc1 ; read by: MTT ; value: 239 µM
COc1cc2c(c(O)c1OC)-c1c(cc3c(c1O)OCO3)C[C@H](C)[C@H](C)C2 ; read by: MTT ; value: 87.1 µg/mL

5 of the rows above, restated:

structure	read by	value
CN1CCn2c(nc(C(=O)NCc3cccc(Cl)c3)c(O)c2=O)C(N(C)C(=O)C(=O)N(C)C)C1	microscopy	>1 µM
O=C1N(Cc2ccc(F)cc2)c2cccn2S(=O)(=O)N1Cc1ccccc1	MTT	190 µM
Cc1cn(CCCCO[C@H]2C=C[C@@H](CO)O2)c(=O)[nH]c1=O	MTT	33 µg/mL
COc1cc2c(c(OC)c1OC)-c1c(cc3c(c1OC)OCO3)[C@H](OC(=O)c1ccccc1)[C@@](C)(O)[C@@H](C)C2	MTT	79.43 µg/mL
CC1c2nc(C(=O)NCc3ccc(F)cc3)c(O)c(=O)n2CCN1Cc1cocn1	microscopy	>1 µM

CCn is the concentration with n% toxicity to the cells.